Measured values from several laboratories, pooled; numbers as filed in NIAID ChemDB.

Shared fields: growth or infection tests; agent: HIV-2; measure: EC50

Rows are shuffled and stem from different studies. ECn: concentration that inhibits the pathogen or its effect by n%. Two numbers with a dash give a range or band. Blank or dashed fields: not listed here.

compound | method | strain or isolate | cell line | value
N#Cc1ccc(-c2csc(N/N=C/c3ccccn3)n2)cc1 | MTT | ROD | MT-4 | >1.71 µM
O=c1ccn([C@@H]2C[C@H](CO)C[C@H]2CO)c(=O)[nH]1 | - | - | CEM | >100 µg/mL
Cc1ccnc(NC(=O)NCCc2ccccc2)n1 | RT activity | - | MT-4 | >10 µg/mL
Cc1cn([C@@H]2C[C@H](OC(C(=O)O)P(=O)(O)O)[C@@H](O)[C@H]2O)c(=O)[nH]c1=O | syncytia | ROD | CEM | >250 µM
N#Cc1csc(NC(=O)NCCc2ccccc2)n1 | RT activity | - | MT-4 | <0.1 µg/mL
CC(C)CN(C[C@@H](O)[C@H](Cc1ccccc1)NC(=O)O[C@H]1CO[C@H]2OCC[C@H]21)S(=O)(=O)c1ccc2nc(NC3CCN(C4CCCC4)CC3)sc2c1 | reporter gene | ROD | MT-4 | 2.7 nM
O=C1c2ccccc2N(Cc2ccccc2)S(=O)(=O)N1COCc1ccccc1 | cytopathic effect | ROD | MT-4 | >10 µM
O=C1c2sc(-c3ccccc3)cc2NS(=O)(=O)N1Cc1ccccc1 | - | - | CEM | >400 µg/mL
CNOC(=O)Cn1c(=O)c(C)cn([C@@H]2O[C@H](CO[Si](C)(C)C(C)(C)C)[C@@H](O)[C@H]2O[Si](C)(C)C(C)(C)C)c1=O | syncytia | ROD | CEM | >10 µM
CC(=O)OCCOCN1c2cc(-c3ccccc3)sc2C(=O)N(Cc2ccccc2)S1(=O)=O | - | - | CEM | >400 µg/mL
C=Cn1cc(C(=O)O)c(=O)c2ccc(N3CCN(c4nccs4)CC3)nc21 | MTT | ROD | MT-4 | 4.93 µM
Cc1cn([C@@H]2O[C@H](CN3CCN(Cc4ccccc4)CC3)C3(OS(=O)(=O)C=C3N)[C@H]2O[Si](C)(C)C(C)(C)C)c(=O)n(C)c1=O | - | - | CEM + CEM/0 | >50 µM
O=C(O)/C=C/c1ccc(O)c(O)c1 | cytopathic effect / MTT | ROD | MT-4 | 6 µg/mL
CC(C)=CCOC[C@H]1O[C@@H](n2cc(C)c(=O)n(C)c2=O)[C@H](O[Si](C)(C)C(C)(C)C)C12OS(=O)(=O)C=C2N | - | - | CEM + CEM/0 | >10 µM
Nc1ncnc2c1ccn2/C=C/[C@H](CO)OCP(=O)(O)O | MTT / absorbance | ROD | MT-4 | >398 µM
CSC1=NS(=O)(=O)N([C@@H]2O[C@H](CO)[C@@H](O)[C@H](O)[C@H]2O)C(=O)N1 | syncytia | ROD | CEM + CEM-SS | >200 µg/mL
O=C(NCCc1ccccc1)Nc1nc2ccccc2s1 | cytopathic effect / XTT | - | MT-4 | <1 µg/mL
CC[C@@H](O)C1=C[C@@H](n2cnc3c(N)ncnc32)[C@H](O)[C@@H]1O | cytopathic effect | - | CEM | >200 µg/mL
CCCCCCCCCCCCCCCC(=O)Nc1ccn([C@H]2CC[C@@H](COP(=O)(O)O[C@H]3C[C@H](n4cc(C)c(=O)[nH]c4=O)O[C@@H]3CO)O2)c(=O)n1 | cytopathic effect / XTT | ROD | CEM + CEM-SS | 0.0568 µM
Cn1cc(C(=O)O)c(=O)c2ccc(N3CCN(c4ccccn4)CC3)nc21 | MTT | ROD | MT-4 | 0.04 µM
O=[N+]([O-])c1cc(COC(CO)CO)c(F)cc1F | cytopathic effect / MTT | - | CEM | >500 µg/mL
Cc1cn([C@@H]2O[C@H](COC(=O)N(C)C)C3(OS(=O)(=O)C=C3N)[C@H]2O[Si](C)(C)C(C)(C)C)c(=O)n(C)c1=O | - | - | MT-4 | >50 µM
O=C(CCCN1C(=O)c2ccccc2C1=O)NC(=S)NC(Cc1ncc[nH]1)C(=O)O | MTT | ROD | MT-4 | >47.26 µM
O=C1c2ccccc2N(COCc2ccccc2)S(=O)(=O)N1Cc1ccccc1 | cytopathic effect | ROD | MT-4 | 5.2–10.8 µM
Cn1cc(C(=O)O)c(=O)c2cnc(N3CCN(c4nc5ccccc5s4)CC3)cc21 | MTT | ROD | MT-4 | >297 µM
CCCOC(=O)[C@H](Cc1ccccc1)NP(=O)(CO[C@H]1CO[C@@H](n2cnc3c(N)nc(N)nc32)C1)N[C@@H](Cc1ccccc1)C(=O)OCCC | MTT / absorbance | ROD | MT-4 | 0.03 µM
Cc1cn([C@@H]2O[C@H](CO[Si](C)(C)C(C)(C)C)[C@@H](O)[C@H]2O[Si](C)(C)C(C)(C)C)c(=O)n(CCC(=O)O)c1=O | syncytia | ROD | CEM | >10 µM
CCCOC(=O)[C@H](Cc1ccccc1)NP(=O)(CO[C@H]1CO[C@@H](n2cc(C)c(N)nc2=O)C1)N[C@@H](Cc1ccccc1)C(=O)OCCC | MTT / absorbance | ROD | MT-4 | 16.7 µM
OC[C@H]1CC(n2cnc3c(NC4CC4)ncnc32)C[C@@H]1CO | - | - | CEM | >100 µg/mL
O=[N+]([O-])c1ccc(-c2csc(N/N=C/c3ccccn3)n2)cc1 | MTT | ROD | MT-4 | >17.3 µM
C#C[C@@H](O)C1=C[C@@H](n2cnc3c(N)ncnc32)[C@H](O)[C@@H]1O | cytopathic effect | - | CEM | >40 µg/mL
O=c1[nH]c(=O)n([C@@H]2C[C@H](CO)C[C@H]2CO)cc1I | - | - | CEM | >100 µg/mL
CSC1=NS(=O)(=O)N([C@@H]2O[C@H](COC(C)=O)[C@@H](OC(C)=O)[C@H]2OC(C)=O)C(=O)N1 | syncytia | ROD | CEM + CEM-SS | >200 µg/mL
Cn1cc(C(=O)O)c(=O)c2ncc(N3CCN(c4nc5ccccc5s4)CC3)cc21 | MTT | ROD | MT-4 | >119 µM
Cc1cn([C@@H]2O[C@H](CN3CCNCC3)C3(OS(=O)(=O)C=C3N)[C@H]2O[Si](C)(C)C(C)(C)C)c(=O)n(C)c1=O | - | - | CEM + CEM/0 | >50 µM
NC(N)=NCCC[C@H](NC(=O)CCNC(=O)CN(CCNC(=O)CN(CCNC(=O)OCc1ccccc1)C(=O)Cn1cnc2c(N)ncnc21)C(=O)Cn1cnc2c(=O)[nH]c(N)nc21)C(=O)O | cytopathic effect / MTT | - | PBMC/D194 + PBMC | >200 µM
COC(=O)Cn1c(=O)c(C)cn([C@@H]2O[C@H](CO[Si](C)(C)C(C)(C)C)[C@@H](O[Si](C)(C)C(C)(C)C)[C@H]2O)c1=O | cytopathic effect / trypan blue | ROD | MT-4 | >2 µM
Cc1cc(COCCO)c(F)cc1F | cytopathic effect / MTT | - | CEM | >500 µg/mL
C[C@H](Cn1cnc2c(N)ncnc21)OCP(=O)(O)O | syncytia | ROD | CEM | 3 µM
O=c1[nH]c(=O)n([C@@H]2C[C@@H](F)[C@H](CO)O2)cc1Cl | - | ROD | CEM + CEM/O | >250 µM
CC[C@H](O)C1=C[C@@H](n2cnc3c(N)ncnc32)[C@H](O)[C@@H]1O | cytopathic effect | - | CEM | >200 µg/mL
CO[C@@H]1C[C@H](n2ccc3c(N)ncnc32)[C@@H](O)[C@H]1O | - | ROD | CEM | >250 µg/mL
Nc1nc(NC2CC2)c2ncn([C@H]3C[C@@H](OCP(=O)(O)O)CO3)c2n1 | MTT / absorbance | ROD | MT-4 | >338 µM
Nn1cc(C(=O)O)c(=O)c2ccc(N3CCN(c4nc5ccccc5s4)CC3)nc21 | MTT | ROD | MT-4 | 2.57 µM
O=C(Cl)CCCN1C(=O)c2ccccc2C1=O | MTT | ROD | MT-4 | >52.8 µM
O=[N+]([O-])c1cc(COCCO)c(F)cc1F | cytopathic effect / MTT | - | CEM | >500 µg/mL
COC(=O)Cn1c(=O)c(C)cn([C@@H]2O[C@H](CO[Si](C)(C)C(C)(C)C)[C@@H](O)[C@H]2O[Si](C)(C)C(C)(C)C)c1=O | cytopathic effect / trypan blue | ROD | MT-4 | >10 µM
CC(C)(C)C(=O)SCCOP(=O)(OCCSC(=O)C(C)(C)C)OC[C@@H]1O[C@H](n2cc(Cl)c(=O)[nH]c2=O)C[C@H]1F | - | ROD | CEM + CEM/O | >50 µM
O=C(O)CCc1ccc(O)c(O)c1 | cytopathic effect / MTT | ROD | MT-4 | 7 µg/mL
O=C1NS(=O)(=O)N(Cc2ccccc2)c2sc(-c3ccccc3)cc21 | - | - | CEM | >400 µg/mL
COC(=O)Cn1c(=O)c(C)cn([C@H]2C=C[C@@H](CO[Si](C)(C)C(C)(C)C)O2)c1=O | syncytia | ROD | CEM | >10 µM
Cn1cc(C(=O)O)c(=O)c2sc(N3CCN(c4nc5ccccc5s4)CC3)nc21 | MTT | ROD | MT-4 | >2.05 µM
O=S1(=O)N=C(OCc2ccccc2)c2ccccc2N1Cc1ccc(Cl)c(Cl)c1 | cytopathic effect | ROD | MT-4 | >250 µM
O=C(NCCc1ccccc1)Nc1cncc(Cl)n1 | cytopathic effect / XTT | - | MT-4 | <1 µg/mL
COC(=O)C(CS)NC(=O)CCCN1C(=O)c2ccccc2C1=O | MTT | ROD | MT-4 | >60.33 µM
C=Cn1cc(C(=O)O)c(=O)c2ccc(N3CCN(c4nc5ccccc5o4)CC3)nc21 | MTT | ROD | MT-4 | >1.03 µM
Cc1nc(NC(=O)NCCc2ccccc2)sc1C | RT activity | - | MT-4 | <1 µg/mL
O=[N+]([O-])c1ccc(-c2csc(N/N=C/c3ccncc3)n2)cc1 | MTT | ROD | MT-4 | >75.6 µM
Cc1cn([C@H]2C[C@H](SS[C@H]3C[C@H](n4cc(C)c(=O)[nH]c4=O)O[C@@H]3CO)[C@@H](CO)O2)c(=O)[nH]c1=O | syncytia | ROD | CEM | 60 µM
CNOC(=O)Cn1c(=O)c(C)cn([C@@H]2O[C@H](CO[Si](C)(C)C(C)(C)C)[C@@H](O[Si](C)(C)C(C)(C)C)[C@H]2O)c1=O | cytopathic effect / trypan blue | ROD | MT-4 | >10 µM
Nc1nc(=O)n([C@@H]2C[C@@H](F)[C@H](CO)O2)cc1Cl | - | ROD | CEM + CEM/O | >50 µM
O=C1[C@@H](Cc2ccc(O)cc2)NC(=S)N1c1ccccc1 | cytopathic effect / XTT | - | MT-4 | <100 µg/mL
NC(N)=NCCCC(NC(=S)NC(=O)CCCN1C(=O)c2ccccc2C1=O)C(=O)O | MTT | ROD | MT-4 | >12.6 µM
Cc1cc(O)ccc1O | cytopathic effect / MTT | ROD | MT-4 | >100 µg/mL
CC(C)(C)[Si](C)(C)OC[C@H]1O[C@@H](n2cnc3c(=O)n(CC(=O)O)cnc32)[C@H](O)[C@@H]1O[Si](C)(C)C(C)(C)C | cytopathic effect / trypan blue | ROD | MT-4 | 22 µM
COC(=O)[C@H](CCCN=C(N)N)NC(=O)CCCCCNC(=O)CN(CCNC(=O)CN(CCNC(=O)OCc1ccccc1)C(=O)Cn1cnc2c(N)ncnc21)C(=O)Cn1cnc2c(=O)[nH]c(N)nc21 | cytopathic effect / MTT | - | PBMC/D194 + PBMC | 11 µM
COC(=O)[C@H](C)NP(=O)(OC[C@@H]1C=C[C@H](n2cc(C)c(=O)[nH]c2=O)O1)Oc1ccccc1 | - | ROD | CEM + CEM TK- | 0.075 µM
COC(=O)C(Cc1ccccc1)NC(=O)CCCN1C(=O)c2ccccc2C1=O | MTT | ROD | MT-4 | >37.82 µM
Nc1ncnc2c1ncn2[C@H]1C[C@@H](OCP(=O)(O)O)CO1 | MTT / absorbance | ROD | MT-4 | 5.23 µM
CO[C@H]1C[C@@H](n2cnc3c(N)ncnc32)[C@H](O)[C@@H]1O | - | ROD | CEM | >250 µg/mL
Cc1cn([C@H]2CC[C@@H](OCC(=O)O)C2)c(=O)[nH]c1=O | syncytia | ROD | CEM | >250 µM
Cn1cc(NC(=O)Nc2cc(C(=O)Nc3cc(C(=O)Nc4ccc(S(=O)(=O)O)c5cc(S(=O)(=O)O)ccc45)n(C)c3)n(C)c2)cc1C(=O)Nc1cc(C(=O)Nc2ccc(S(=O)(=O)O)c3cc(S(=O)(=O)O)ccc23)n(C)c1 | cytopathic effect / XTT | ROD | CEM + CEM-SS | 13.8 µM
OCC(CO)OCc1ccc(F)cc1F | cytopathic effect / MTT | - | CEM | >500 µg/mL
O=C(O)Cc1cc(O)ccc1O | cytopathic effect / MTT | ROD | MT-4 | 9 µg/mL
COC(=O)[C@H](CCCN=C(N)N)NC(=O)CCNC(=O)CN(CCNC(=O)CN(CCNC(=O)OCc1ccccc1)C(=O)Cn1cnc2c(N)ncnc21)C(=O)Cn1cnc2c(=O)[nH]c(N)nc21 | cytopathic effect / MTT | - | PBMC/D194 + PBMC | >200 µM
Nc1nc(=O)n([C@@H]2CC[C@H](CO)O2)cc1Cl | - | ROD | CEM + CEM/O | >250 µM
Cc1cn([C@@H]2O[C@H](COC(=S)N(C)C)C3(OS(=O)(=O)C=C3N)[C@H]2O[Si](C)(C)C(C)(C)C)c(=O)n(C)c1=O | - | - | CEM + CEM/0 | >10 µM
COC(=O)[C@H](CCCN=C(N)N)NC(=O)CCCCCNC(=O)CN(CCNC(=O)CN(CCNC(=O)OCc1ccccc1)C(=O)Cn1cnc2c(=O)[nH]c(N)nc21)C(=O)Cn1cnc2c(N)ncnc21 | cytopathic effect / MTT | - | PBMC/D194 + PBMC | >200 µM
N#Cc1ccc(-c2csc(N/N=C/c3ccccc3O)n2)cc1 | MTT | ROD | MT-4 | >104 µM
CC(C)(C)[Si](C)(C)OC[C@@H]1CC[C@H](n2cnc3c(=O)n(CC(=O)O)cnc32)O1 | syncytia | ROD | CEM | >200 µM